{"source": "patent US9481734B2", "about": "(Janssen Biotech, Inc., priority 2007, dated 2016)", "test_system": "human IgG1", "experiment": "Proteinase digestion of purified IgG1, Agilent biosizing", "type": "biochemical", "conditions": "human IgG1 heavy chain, EU numbering; 1% (w/w) enzyme, pH 7.5, 37° C.", "procedure": "A purified monoclonal antibody comprising a human IgG heavy chain was contacted with the proteases described and sampling was conducted over various durations of contact. Fragmentation in the samples was evaluated using the Agilent microfluidics “lab-on-a-chip” technology for in vitro biosizing (Goetz H et al. Biochemical and Biophysical Methods 60; 281-293, 2004).\nProteinase digestions of purified IgGs were carried out at pH 7.5 in phosphate-buffered saline (PBS) or, for the metalloproteinases, in Tris-buffered saline buffer at 37° C. Calcium chloride was included in the metalloproteinase reactions at 1 mM for MMP-12 and 10 mM for MMP-3; otherwise no additives were used. Antibody concentrations were typically 1 or 2 mg/mL and reactions were initiated by addition of enzyme to a 1% (w/w) ratio to IgG. […]\nThe major proteolytic cleavage positions in the IgG1 hinge were identified for enzyme-generated fragments by N-terminal sequencing of the purified Fc fragment (MMP-3 and MMP-12) and/or high resolution mass spectrometric analyses of the purified Fab (neutrophil elastase, plasmin) and F(ab′)2 (cathepsin G, glutamyl endopeptidase and IdeS) fragments. Fragmentation was evaluated using the Agilent microfluidics “lab-on-a-chip” technology.", "data": [{"substance": "Glutamyl endopeptidase I (Glu V8 protease): Staph. aureus serine endopeptidase", "values": [{"measurement": "Cleaved Site", "result": "Glu^233-"}]}]}
